The results in this text go back to patent US20240270826A1 (NATIONAL RESEARCH COUNCIL OF CANADA, published 2024).

As a reminder, the Kd is the free concentration of one partner at which half of the binding sites on the other are occupied at equilibrium, for simple one-to-one binding. Read a low Kd as tighter binding. Usually koff stands for the first-order rate constant of dissociation. Usually kon stands for a measure of how fast the partners come together. The low end stands for slow association, the high end for fast association.

Like-named read-outs stand apart in the source and are kept apart here.

The target in experiment [1] is T1, RBD_beta (aa319-541) (B.1.351) (SARS-CoV-2 (Beta, B.1.351), UniProt P0DTC2 319-541).
The target of experiment [2] is T1, RBD_beta (aa319-541) (B.1.351). The source holds these as a separate data set.
For experiment [3] the target is unchanged. Nature of the experiment: SPR, RBD over captured VHH-Fc.
For experiment [4] the target is unchanged. Nature of the experiment: SPR, RBD over captured VHH-Fc (per Table 11 footnote). (In general: In SPR one partner is held on a chip, and binding of the other changes the refractive index at the surface.)

B1: NRCoV2-12 VHH-Fc (Fc fusion)
chain: EVQLQQSGGGLVQAGGSLRLSCAASGRTFRNYVMGWFRQAPQAPGKDHEFVAAISWGGTEIYYADSVKGRFTISRDNAKNTVYLQMNSLKPEDTAVYYCAADRGLSYYYTRTTEYNYWGQGTQVTVSS
In the case of B1, in experiment [1], the dissociation constant Kd was 40 pM. In experiment [2], this molecule returned a Kd of 40.1 pM, a koff of 3.89e-05 s⁻¹ and a kon of 970000 M⁻¹ s⁻¹.

B2: NRCoV2-MRed05 VHH-Fc (Fc fusion)
chain: EVQLVESGGGLVQPGGSLRLSCAASGFTLDYYAIGWFRQAPGKEREGVSCISSSDGSTLYADSVKGRFTISRDNAKNTVYLQMNSLKPEDTAVYYCATGPQAYYSGSYYFQCPQAGMDYWGKGTQVTVSS
On to B2, for which, in experiment [3], the Kd is 888 pM, the off-rate constant (koff) turned out to be 0.000544 s⁻¹ and the on-rate constant (kon) was 612000 M⁻¹ s⁻¹. The molecule also showed an equilibrium dissociation constant (Kd) in experiment [4] of 890 pM.
